Compound potency records, mixed from different reports. Data source: NIAID ChemDB in PubChem.

Common to all: toxicity to cultured cells; cell line: MT-4; measure: CC50

Neighbouring rows are from separate reports. CCn: concentration that lowers growth or viability of the cells by n%. An empty or dashed field is not shown. a–b is a range or a potency band.

OC[C@@H]1SC[C@H](n2cnc3c(Cl)ncnc32)S1 ; result: 10 µg/mL
Cc1cn([C@@H]2O[C@H](CO[Si](C)(C)C(C)(C)C)[C@@H](O)[C@H]2O[Si](C)(C)C(C)(C)C)c(=O)n(CCO)c1=O ; result: 46 µM
CC1(C)S[C@H]([C@H](NC(=O)Cc2ccccc2)C(=O)NCc2ccccc2)N[C@H]1C(=O)N[C@H](Cc1ccccc1)[C@H](O)CC(=O)Nc1nc2ccccc2[nH]1 ; result: >100 µM
C/C=C(/C)C(=O)O[C@]12C(C3C=C(CO)C[C@]4(O)C(=O)C(C)=CC4[C@@]3(O)[C@H](C)[C@H]1OC(C)=O)C2(C)C ; result: >500 µg/mL
COc1ccc(Oc2coc3cc(OC)cc(O)c3c2=O)c(OC)c1 ; result: >100 µg/mL
N#Cc1cn(COCCO)c2ccccc12 ; result: >200 µM
CC(C)CNC(=O)C[C@@H](O)[C@@H](Cc1ccccc1)NC(=O)[C@@H]1N[C@@H]([C@H](NC(=O)Cc2ccccc2)C(=O)NCc2ccccc2)SC1(C)C ; result: >100 µM
OCCOCn1c(-c2ccccc2)c(Br)c2ccccc21 ; result: 117 µM
CC(C)(C)[Si](C)(C)OC[C@H]1O[C@@H](n2cnc3c(N)ncnc32)[C@H](O[Si](C)(C)C(C)(C)C)C12OS(=O)(=O)C=C2N ; result: 8.3 µg/mL
Nc1nc(=O)n([C@@H]2CS[C@H](CO)O2)cc1F ; result: >100 µg/mL
CNc1ncnc2c1ncn2[C@@H]1O[C@H](CO[Si](C)(C)C(C)(C)C)C2(OS(=O)(=O)C=C2N)[C@H]1O[Si](C)(C)C(C)(C)C ; result: 4–20 µg/mL
Nc1ccn([C@H]2CS[C@@H](CO)S2)c(=O)n1 ; result: >100 µg/mL
O=c1c(O)c(-c2cc(O)c(O)c(O)c2)oc2cc(O)cc(O)c12 ; result: >100 µg/mL
CC(C)=CCN1Cc2cc(Cl)cc3[nH]c(=S)n(c23)C[C@@H]1C ; result: 16 µg/mL
CC(=O)OCCOCn1c(-c2ccccn2)c([N+](=O)[O-])c2ccccc21 ; result: >200 µM
CCCC(C)(C)[Si](C)(C)OC[C@H]1O[C@@H](n2cc(C)c(=O)n(CC(=O)O)c2=O)[C@H](O[Si](C)(C)C(C)(C)CCC)[C@@H]1O ; result: 18 µM
CCCCCCCCCCCCCC(=O)O[C@@H]1[C@@H](C)[C@@]2(O)[C@@H](C=C(CO)C[C@]3(O)C(=O)C(C)=C[C@@H]23)[C@@H]2C(C)(C)[C@]12OC(C)=O ; result: >31.3 µg/mL
CC(C)Nc1cccnc1N1CCN(C(=O)c2c[nH]c(-c3ccccc3N)c2)CC1 ; result: 98 µM
CCc1c(C(C)c2c(F)cccc2F)nc(SCCOCc2ccc(OC)cc2)[nH]c1=O ; result: >54.35 µM
COc1cc(NC(C)CCCN)c2ncccc2c1 ; method: MTT ; result: 17.9 µM
Cc1cn([C@@H]2O[C@H](CO[Si](C)(C)C(C)(C)C)[C@@H](O[Si](C)(C)C(C)(C)C)[C@H]2O)c(=O)n(CCO)c1=O ; result: 35 µM
COc1ccc(Oc2coc3cc(OC)c(CC=C(C)C)c(O)c3c2=O)c(OC)c1 ; result: >100 µg/mL
Cc1cc(SC2=C(O)C[C@](CCc3ccc(N)cc3)(C(C)C)OC2=O)c(C(C)(C)C)cc1CO ; result: >250 µg/mL
CC1(C)S[C@H]([C@H](NC(=O)Cc2ccccc2)C(=O)NCc2ccccc2)N[C@H]1C(=O)N[C@H](Cc1ccccc1)[C@H](O)CC(=O)NCc1ccccc1 ; result: >100 µM
CC(C)(C)[Si](C)(C)OC[C@H]1O[C@@H](n2cnc3c(=O)n(CC(=O)O)cnc32)[C@H](O[Si](C)(C)C(C)(C)C)[C@@H]1O ; result: 106 µM
CCCN(C)c1nc(C(C)c2c(F)cccc2F)c(C)c(=O)[nH]1 ; method: MTT ; result: >78 µM
Cc1cn([C@@H]2O[C@H](CO[Si](C)(C)C(C)(C)C)[C@@H](O)[C@H]2O[Si](C)(C)C(C)(C)C)c(=O)n(CC(=O)ON)c1=O ; result: 4.1 µM
CC(C)Nc1cccnc1N1CCN(C(=O)c2c[nH]c(-c3ccccc3)c2)CC1 ; result: 78 µM
CCNC(=O)[C@@H](NC(=O)Cc1ccccc1)[C@@H]1N[C@@H](C(=O)NCCNC(=O)[C@@H]2N[C@@H]([C@H](NC(=O)Cc3ccccc3)C(=O)NCC)SC2(C)C)C(C)(C)S1 ; result: >128 µM
CC(C)=CCN1Cc2cccc3[nH]c(=S)n(c23)C[C@H]1C ; result: ≥250 µg/mL
CC(=O)Oc1ccc(CSc2nc(Cc3c(F)cccc3F)c(C)c(=O)[nH]2)cc1 ; result: >60.1 µM
CC(C)Nc1cccnc1N1CCN(C(=O)c2c[nH]c(-c3ccc(N)cc3)c2)CC1 ; result: >200 µM
Nc1nc2c(ncn2CCOCP(=O)(O)O)c(=O)[nH]1 ; result: 2.4 µM
O=Cc1cn(COCCO)c2ccccc12 ; result: ≥200 µM
C/C=C(/C)C(=O)O[C@@H]1[C@@H](C)[C@@]2(O)C(C=C(CO)C[C@]3(O)C(=O)C(C)=CC23)C2C(C)(C)[C@@]21OC(=O)C(C)CC ; result: >62.5 µg/mL
COc1cc(/C=C/c2cc[n+]3c(c2)-c2c(c(C)c(C)c4c2-c2cc(/C=C/c5cc(OC)c(OC)cc5COc5ccccc5)cc[n+]2CC4)CC3)c(COc2ccccc2)cc1OC.O=S(=O)([O-])C(F)(F)F.O=S(=O)([O-])C(F)(F)F ; method: absorbance ; result: >50 µM
Cc1cn([C@@H]2O[C@H](COC(=O)c3ccccc3)[C@@H](O)[C@H]2OC(=O)c2ccccc2)c(=O)n(CC(=O)O)c1=O ; result: 105 µM
CC(C)=CCN1Cc2c(Br)ccc3[nH]c(=S)n(c23)C[C@@H]1C ; result: 25.4 µg/mL
O=c1[nH]cnc2c1ncn2[C@H]1CS[C@@H](CO)S1 ; result: >100 µg/mL
CC(C)(C)[Si](C)(C)OC[C@@H]1CC[C@H](n2cnc3c(=O)n(CC(=O)OCc4ccccc4)cnc32)O1 ; result: 29.3 µM
O=[N+]([O-])c1c(-c2ccccn2)n(COCCO)c2ccccc12 ; result: >200 µM
Cn1cnc2c(ncn2[C@@H]2O[C@H](CO[Si](C)(C)C(C)(C)C)C3(OS(=O)(=O)C=C3N)[C@H]2O[Si](C)(C)C(C)(C)C)c1=O ; result: >100 µg/mL
CCc1c(Cc2c(Cl)cccc2Cl)nc(SCc2ccc(C#N)cc2)[nH]c1=O ; result: >58.14 µM
CC(C)=CCN1Cc2cccc3[nH]c(=S)n(c23)CC1C ; result: 25 µg/mL
Nc1nc(N)c2ncn(CCOCP(=O)(O)O)c2n1 ; result: 48 µM
CC(C)Nc1cccnc1N1CCN(C(=O)c2cc3cc(NS(C)(=O)=O)ccc3[nH]2)CC1 ; result: >100 µM
O=C(/C=C/c1ccccc1)c1ccccc1O ; result: 2 µg/mL
Cc1cn([C@H]2C[C@H](N=[N+]=[N-])[C@@H](CO)O2)c(=O)[nH]c1=O ; result: 154 µM
CC(C)(C)[Si](C)(C)OC[C@H]1O[C@@H](n2cnc3[nH]c(=O)[nH]c(=O)c32)[C@H](O[Si](C)(C)C(C)(C)C)C12OS(=O)(=O)C=C2N ; result: 7.7 µg/mL
Cc1cn([C@H]2C[C@H](N=[N+]=[N-])[C@@H](CO)O2)c(=O)[nH]c1=O ; result: 150 µM
CC1(C)S[C@H]([C@H](NC(=O)Cc2ccccc2)C(=O)NCc2ccccc2)N[C@H]1C(=O)N[C@H](Cc1ccccc1)[C@H](O)CC(N)=O ; result: >100 µM
CCCCCCCCCC(=O)O[C@@H]1[C@@H](C)[C@@]2(O)C(C=C(CO)C[C@]3(O)C(=O)C(C)=CC23)C2C(C)(C)[C@@]21OC(=O)C(C)CC ; result: >31.3 µg/mL
COc1ccc(COCCSc2nc(C(C)c3c(Cl)cccc3Cl)c(C)c(=O)[nH]2)cc1 ; result: 39.04 µM
Nc1ccn([C@@H]2CS[C@@H](CO)S2)c(=O)n1 ; result: >100 µg/mL
Cc1cn([C@H]2C[C@H](N=[N+]=[N-])[C@@H](CO)O2)c(=O)[nH]c1=O ; method: MTT ; result: >7 µM
CCCN(C)c1nc([C@H](C)c2c(F)cccc2F)c(C)c(=O)[nH]1 ; method: MTT ; result: 75 µM
Cc1c(Cc2c(F)cccc2F)nc(SCC(=O)c2ccc([N+](=O)[O-])cc2)[nH]c1=O ; result: >58 µM
COc1cc2oc(=O)c(-c3ccc(O)cc3O)cc2c(OC)c1CC=C(C)C ; result: 11 µg/mL
Cc1c(Cc2c(Cl)cccc2Cl)nc(S/C=C/c2ccc(F)cc2)[nH]c1=O ; result: >59.38 µM
COC(=O)CCn1c(=O)c(C)cn([C@@H]2O[C@H](CO[Si](C)(C)C(C)(C)C)[C@@H](O)[C@H]2O[Si](C)(C)C(C)(C)C)c1=O ; result: 17 µM
Cc1cn([C@@H]2C[C@@H](N=[N+]=[N-])[C@H](COP(=O)(O)OC3CCC4(C)C(CCC5C4CC(O)C4(C)C(C(C)CCC(=O)OC[C@@H]6CC[C@H](n7cnc8c(=O)[nH]cnc87)O6)CCC54)C3)O2)c(=O)[nH]c1=O ; method: MTT ; result: 42.22 µM
Nc1nc(Cl)c2ncn([C@@H]3CS[C@@H](CO)S3)c2n1 ; result: >100 µg/mL

Repeating the first 8 entries:

SMILES	method	result
OC[C@@H]1SC[C@H](n2cnc3c(Cl)ncnc32)S1		10 µg/mL
Cc1cn([C@@H]2O[C@H](CO[Si](C)(C)C(C)(C)C)[C@@H](O)[C@H]2O[Si](C)(C)C(C)(C)C)c(=O)n(CCO)c1=O		46 µM
CC1(C)S[C@H]([C@H](NC(=O)Cc2ccccc2)C(=O)NCc2ccccc2)N[C@H]1C(=O)N[C@H](Cc1ccccc1)[C@H](O)CC(=O)Nc1nc2ccccc2[nH]1		>100 µM
C/C=C(/C)C(=O)O[C@]12C(C3C=C(CO)C[C@]4(O)C(=O)C(C)=CC4[C@@]3(O)[C@H](C)[C@H]1OC(C)=O)C2(C)C		>500 µg/mL
COc1ccc(Oc2coc3cc(OC)cc(O)c3c2=O)c(OC)c1		>100 µg/mL
N#Cc1cn(COCCO)c2ccccc12		>200 µM
CC(C)CNC(=O)C[C@@H](O)[C@@H](Cc1ccccc1)NC(=O)[C@@H]1N[C@@H]([C@H](NC(=O)Cc2ccccc2)C(=O)NCc2ccccc2)SC1(C)C		>100 µM
OCCOCn1c(-c2ccccc2)c(Br)c2ccccc21		117 µM